Results reported in PubChem BioAssay AID504847 (National Center for Advancing Translational Sciences (NCATS), 2011).
Only a part is listed here, and it is no random draw. Results filed as inconclusive are left out. Active and inactive are the calls of the source. Calls follow the shape of the dose curve; as a rule, active = well fitted inhibition curve with a large enough effect; inconclusive = small, poorly fitted or top-dose-only effect, or another doubt; inactive = no such curve, though single readings can be large or run the other way.

The chains behind the UniProt entries cited, without tags or fusion partners.
UniProt P11473, whole entry: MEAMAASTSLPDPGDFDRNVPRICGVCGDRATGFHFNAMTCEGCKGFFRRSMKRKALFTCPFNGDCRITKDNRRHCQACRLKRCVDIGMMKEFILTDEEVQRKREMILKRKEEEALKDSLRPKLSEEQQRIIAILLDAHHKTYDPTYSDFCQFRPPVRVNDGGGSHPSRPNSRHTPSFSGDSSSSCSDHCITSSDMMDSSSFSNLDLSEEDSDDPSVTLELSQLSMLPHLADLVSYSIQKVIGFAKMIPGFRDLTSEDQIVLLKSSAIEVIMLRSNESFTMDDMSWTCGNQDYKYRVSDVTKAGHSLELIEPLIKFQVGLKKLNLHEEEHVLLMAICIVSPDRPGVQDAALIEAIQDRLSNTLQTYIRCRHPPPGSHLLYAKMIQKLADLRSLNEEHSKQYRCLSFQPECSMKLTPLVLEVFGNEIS

Target: Vitamin D3 receptor (Homo sapiens) (UniProt P11473)
Experiment: Inhibitors of the vitamin D receptor (VDR): qHTS
Details: VDR-SRC2-3 peptide fluorescence polarization, 2 h
Potency is read from the fitted curve at half-maximal effect.

SMILES | Potency
COc1ccc2cc([S+]([O-])Cc3ncc(C)c(OC)c3C)nc2c1 | active: 50.1 µM
